Measured values from several laboratories, pooled; numbers as filed in NIAID ChemDB.

Common to all: enzyme or target tests; species: HIV-1; protein: gp120; read-out: IC50

Blank or dashed fields: not listed here.

SMILES,method,result
CC[C@H](C)C=C(C)/C=C/C1=CC2=C(Cl)C(=O)[C@]3(C)OC(=O)[C@@H](C(C)=O)[C@@H]3C2=CO1,,2.75 µg/mL
O=C1c2c(O)cc(O[C@@H]3C[C@@H](O)[C@H](O)[C@@H](CO)O3)cc2O[C@H](c2ccc(O)c(O)c2)[C@H]1O,ELISA,<50 µg/mL
CC[C@H](C)/C=C(C)/C=C/C1=CC2=CC(=O)[C@]3(C)OC(=O)[C@@H](C(C)=O)[C@@H]3C2=CO1,ELISA,114 µM
COC(=O)C(=O)N1CCC[C@H]1/C=C\[C@H](Cc1ccccc1)C(=O)OCc1ccccc1,ELISA,>1000 µg/mL
O=C1c2c(O)cc(O[C@@H]3C[C@@H](O)[C@H](O)[C@@H](CO)O3)cc2O[C@H](c2ccc(O)cc2)[C@H]1O,ELISA,<80 µg/mL
CC[C@H](C)/C=C(C)/C=C/C1=CC2=C(Cl)C(=O)[C@](C)(O)[C@H](CC(C)=O)C2=CO1,ELISA,3.9 µM
CCCCCCCCCCCCCCCCCC(=O)N(CCCCCCCCCCC(=O)O)CC(O)C(O)C(OC1OC(CO)C(O)C(O)C1O)C(O)CO,radiometric,1.2 µM
O=C1c2c(O)cc(O)cc2O[C@H](c2ccc(O)cc2)[C@H]1O,ELISA,<60 µg/mL
CC[C@H](C)/C=C(C)/C=C/C1=CC2=C(Cl)C(=O)[C@@](C)(O)[C@H](O)C2=CO1,ELISA,9.4 µM
CC(C)C[C@H](NC(=O)[C@H](Cc1ccccc1)N1NC(=O)[C@H]([C@@H](N)CO)CCC(=O)N[C@@H](CO)C1=O)C(=O)N[C@H](C(=O)NCc1ccccc1)[C@@H](C)O,ELISA,>100 µM
CC[C@H](C)/C=C(C)/C=C/C1=CC2=C(Cl)C(=O)[C@](C)(O)[C@H](O)[C@H]2CO1,ELISA,48 µM
CC[C@H](C)C=C(C)/C=C/C1=CC2=C(Cl)C(=O)[C@]3(C)OC(=O)[C@@H](C(C)=O)[C@@H]3C2=CO1,ELISA,6.6 µM
CC[C@H](C)/C=C(C)/C=C/C1=CC2=C(Cl)C(=O)[C@@]3(C)OC(=O)C(C(C)=O)=C3C2=CO1,,13 µg/mL
CC[C@H](C)/C=C/C1=CC2=C(Cl)C(=O)[C@@]3(C)OC(=O)C(C(=O)[C@@H](C)[C@@H](C)O)=C3C2=CO1,ELISA,>230 µM
CCC(C)/C=C(C)/C=C/C(=O)CC1=C(Cl)C2=C(C(C)=O)C(=O)O[C@]2(C)c2oc(=O)c(C(C)=O)cc21,,>100 µg/mL
CC[C@H](C)CC(C)CCC1=CC2=C(Cl)C(=O)[C@]3(C)OC(=O)[C@@H](C(C)=O)[C@@H]3C2=CO1,ELISA,>260 µM
O=C1C[C@@H](c2ccc(O)cc2)Oc2cc(O[C@@H]3C[C@@H](O)[C@H](O)[C@@H](CO)O3)cc(O)c21,ELISA,<80 µg/mL

Repeating the final 2 entries:

CC[C@H](C)CC(C)CCC1=CC2=C(Cl)C(=O)[C@]3(C)OC(=O)[C@@H](C(C)=O)[C@@H]3C2=CO1 ; method: ELISA ; result: >260 µM
O=C1C[C@@H](c2ccc(O)cc2)Oc2cc(O[C@@H]3C[C@@H](O)[C@H](O)[C@@H](CO)O3)cc(O)c21 ; method: ELISA ; result: <80 µg/mL

Conditions beyond the fields shown may differ between rows. ICn: concentration for n% inhibition.